# Experimental data taken from PMC12285254.
# Test system: TetR1 (C_22735)
# Experiment: EMSA
# Settings: supershift with anti-Myc (Myc.A7); LightShift EMSA Optimization and Control kit (Thermo) per manufacturer, 100 ng probe per reaction, varied protein; 2 uL of 1 mg/mL Myc.A7 for supershift; recombinant protein; residues 1-189; label: biotin (labeled or unlabeled primers); probe letters rebuilt from the primers and the genome
sequence,measurement,value
CGTTACCCGTTTCTTGGATCCCAAAGGTGGCGGATGGCCATATTATTTAGAGTGCGGAATGTGATCATCTTGATGAACTTTTTCAGCCGAATGTAAGTGAAAGATTACACACATTTAGAAACATTCTAGGTGATGGCACGCTATCATCGGTGGTAATAACAGTGGGTTCACAGAACCTTAACCTGCGATTTCGGTAATAAGCTACGCTGAATCCTTTCCGCCAATCCTTAGATGGCTGTGCCTGGAAATACTCTAAGCAGGTGGGCTTTTGTTCGGATTGCCGAATGCGATGATGACTAAAAGCCATCACTAGTGGTGCCGAAAAACCGGGGCTATGACCGCTTTGCCAGTATTCAAGCCTCTGTGTTGTTCGGAAATCCGACTGCTCGTGGAGGCGGTACTAAGCTCGTTGTATTGACTGTTAAAGTGTGCAAGTAATTAGTGTCAGGCTGTTGTTTGTTTTTTGATATTATTGTTATCCGCTTCTTTAAGCTCGCCGTTACAAATCGGTTGGTTTTCTTTTTTTTTGTGTTCGGGTTTCTGCTGTTTTCTTACTTGCCACTCCCTTTAGTTTTTTTGAAGGGTCTTATATATGTCTCTCGAGTAGTGACAATAAGTTAGTTGCGTTTGATTGCGCGATTTTGGGGCGCTTGCTGCTCAAAGGTGCCCGGTCTTCTCTCTGGTCACAGCTGCCTTCAGGTGTGGAGAGGCCCTGTGGCTGCGGGGTGAGCCAGTGCATGGGCACTGTAAGCGCTTGTTCGCATTGGAGTAACGATAGATTAAAGTAATCATCTCAAGAGCCTGAGTCTATCGGCGGGGTCGGCTTGGTATGATGATATTACTATGATAGTAATTCTCAACTTTGTGATCTTTTTCTCATTTTCCGGGGAACTAAATTAATATATGTCTGCCTTGTAAGACGTGGTATTAATACTCCGCTTGCCACCCACAATGAGAGTGAACGATGAGCACAGGC (double strand) [hrpR upstream probe (976 bp)],binding result,binds
